A mixed list of measured activities; the numbers were collected in NIAID ChemDB.

All rows: growth or infection tests; organism: Mycobacterium tuberculosis

Blank or dashed fields: not listed here. Neighbouring rows are from separate reports. Inhibition is in % at the dose shown (toxicity tests: loss of growth or viability). MIC50, MIC90 and the like: level of inhibition, or share of isolates inhibited. MIC bound comes from a single tested concentration.

| structure | read by | tested at | mutations | strain | measure | result |
|---|---|---|---|---|---|---|
| CCCCN1C(=O)CS/C1=N\NC(=O)Cc1csc2nc(-c3ccc(Br)cc3)cn12 |  | 6.25 µg/mL |  | H37Rv | inhibition | 0% |
| COc1cc(C2Cc3c(OC)cc(C(=O)O)cc3C2COC(C)=O)ccc1OC(C)=O | resazurin | 6.25 µg/mL |  | ATCC 27294 | inhibition | 38% |
| CCOC(=O)c1nc2sc3c(c2c(=O)[nH]1)CCCC3 | BACTEC | 12.5 µg/mL |  | H37Rv | inhibition | 90% |
| CN(C)CCCNC(=O)Nc1c(C#N)[n+]([O-])c2cc(F)ccc2[n+]1[O-] |  |  |  | H37Rv | MIC | >12.5 µg/mL |
| CN(C)CN1CSC(=S)N(CN(C)C)C1 | BACTEC | 12.5 µg/mL |  | H37Rv | inhibition | 17% |
| NNC(=O)c1ccncc1 |  |  |  |  | MIC | 0.04 µg/mL |
| Cc1ccc(NC(=S)NNC(=O)Cc2csc3nc(-c4ccc(Br)cc4)cn23)cc1 |  |  |  | H37Rv | MIC | >6.25 µg/mL |
| CCC1CCC2CN(/N=C/c3c4c(O)c5c(O)c(C)c6c(c5c3O)C(=O)[C@@](C)(O/C=C/[C@H](OC)[C@@H](C)[C@@H](OC(C)=O)[C@H](C)[C@H](O)[C@H](C)[C@@H](O)[C@@H](C)/C=C/C=C(/C)C(=O)N4)O6)CCN2C1 |  |  |  |  | MIC | 0.03 µg/mL |
| CCN1C[C@]2(CO)CC[C@H](OC)[C@]34C5CC6[C@H](OC)C5[C@](O)(C[C@@H]6OC)[C@@](O)(C13)[C@@H](OC)[C@H]24 | BACTEC |  |  | H37Rv | MIC bound | >12.5 µg/mL |
| CCn1cc(C(=O)O)c(=O)c2cc(F)c(-n3cccc3)cc21 |  |  |  |  | MIC90 | >4 µg/mL |
| c1ccc(-c2ccc(CNc3ccc(-n4ccnc4)cc3)cc2)cc1 |  |  |  | 103471 | MIC | 8 µg/mL |
| CCN(CC)C(=O)c1cc(C2C3CC4CC(C3)CC2C4)c2ccccc2n1 | BACTEC |  |  | H37Ra | MIC | >6.25 µg/mL |
| CCCCCCCCO[C@H]1O[C@H](CO[C@H]2O[C@H](CNS(=O)(=O)CC)[C@@H](O)[C@@H]2O)[C@@H](O)[C@@H]1O |  |  |  | H37Ra | MIC | >12.8 µg/mL |
| Cc1noc(NS(=O)(=O)c2ccc(N=C(N)N=C(N)N)cc2)c1C | BACTEC |  |  | H37Rv | MIC bound | >12.5 µg/mL |
| N#Cc1c(N)[n+]([O-])c2ccc(C(F)(F)F)cc2[n+]1[O-] |  |  |  | H37Rv | MIC | <12.5 µg/mL |
| CC(C)(C)NCCNc1cc(C(F)(F)F)nc2c(C(F)(F)F)cccc12 |  | 6.25 µg/mL |  | H37Rv | inhibition | 4% |
| CN[C@@H]1[C@H](O)[C@H](NC)[C@H]2O[C@@]3(O)[C@H](NC(=O)CC(C)C)C[C@@H](C)C[C@H]3O[C@@H]2[C@H]1O | broth dilution |  |  | H37Rv | MIC | 200 µg/mL |
| O=C1CCC23CC(C=CC=C12)n1c(=O)n(-c2ccccc2)c(=O)n13 | resazurin |  |  | H37Rv | MIC bound | >6.25 µg/mL |
| CN1CCN(c2ccccc2NCc2ccc(-c3ccccc3)cc2)CC1 |  |  |  | 103471 | MIC | 4 µg/mL |
| CC1=C(O)C(C)(CCC(C)CCCC(C)C)SC1=O |  |  |  | H37Rv | MIC90 | 29 µM |
| Cc1cc(N(CCC#N)S(C)(=O)=O)ccc1C=Nc1ccc(C(=O)N[N+]2=C(c3cc([N+](=O)[O-])ccc3Cl)NC(=O)/C2=C/c2ccc(N(CCC#N)CCC#N)cc2C)cc1 | BACTEC | 12.5 µg/mL |  | H37Rv | inhibition | 13% |
| CCCCCCCCO[C@H]1O[C@H](CO[C@H]2O[C@H](CN=[N+]=[N-])[C@@H](O)[C@@H]2O)[C@@H](O)[C@@H]1O |  |  |  | H37Ra | MIC | >12.8 µg/mL |
| Cc1cc(-c2cc3c(cc2F)c(=O)c(C(=O)O)cn3C2CC2)cc(C)n1 |  |  |  |  | MIC90 | >4 µg/mL |
| COc1ncnc(Cn2cnc3c(C(=O)NCC(F)(F)F)cccc32)c1C | visual reading / absorbance |  |  | H37Rv | MIC80 | <1.32 µM |
| CN[C@@H]1[C@H](O)[C@H](NC)[C@H]2O[C@@]3(O)C(=O)C[C@@H](C)O[C@H]3O[C@@H]2[C@H]1O | broth dilution |  |  | H37Rv-HL-15 | MIC | >200 µg/mL |
| FC(F)(F)c1cc(NCCCCCCCCCNc2cc(C(F)(F)F)nc3c(C(F)(F)F)cccc23)c2cccc(C(F)(F)F)c2n1 |  |  |  | H37Rv | MIC | >6.25 µg/mL |
| CO[C@H]1/C=C/O[C@@]2(C)Oc3c(C)c(O)c4c(O)c(c(/C=N/N5CCN(C)CC5)c(O)c4c3C2=O)NC(=O)/C(C)=C\C=C\[C@H](C)[C@H](O)[C@@H](C)[C@@H](O)[C@@H](C)[C@H](OC(C)=O)[C@@H]1C | resazurin / absorbance |  | katG mutant isoniazid resistant | HUG.MI.1020 | MIC | 0.001 µg/mL |
| CC1SC(=O)C(C)(C)C1=O |  |  |  | H37Rv | MIC | 240 µM |
| NNC(=O)c1cc(C2CCCC2)c2c(C3CCCC3)cccc2n1 | BACTEC |  |  | H37Ra | MIC | 6.25 µg/mL |
| C=C/C(C)=C/C[C@H]1C(=C)CC[C@H]2[C@](C)(CO)C[C@H](O)C[C@]12C |  |  |  | H37Rv (ATCC 27294) | MIC | >650 µM |
| C[C@@H]1CN(c2c(F)c(N)c3c(=O)c(C(=O)O)cn(C4CC4)c3c2F)C[C@H](C)N1 |  |  |  | 18 strains | MIC90 | 0.5 µg/mL |
| CN1C(=O)CS/C1=N\NC(=O)Cc1csc2nc(-c3ccc(Br)cc3)cn12 |  |  |  | H37Rv | MIC | >6.25 µg/mL |
| Cc1ccc2c(c1)[n+]([O-])c(C#N)c(NC(=O)OC(C)C)[n+]2[O-] |  | 6.25 µg/mL |  | H37Rv | inhibition | 100% |
| CCn1cc(C(=O)O)c(=O)c2cc(F)c(N3CCNCC3)cc21 |  |  |  |  | MIC90 | >4 µg/mL |
| O=C(O)C/C(C=CC(=O)C(=O)O)=C/O | BACTEC |  |  | H37Rv | MIC bound | >12.5 µg/mL |
| CCCn1c(O)c(N=NC(=O)c2ccncc2)c2ccccc21 |  |  |  | Human sensitive isolate | MIC | 3.1 µg/mL |
| COc1ccc(-c2cc(=O)c3cc(C)c(C)c(C#N)c3o2)cc1 | resazurin |  |  | H37Rv | MIC bound | >6.25 µg/mL |
| NNC(=O)c1ccncc1 |  |  |  | 38 strains | MIC90 | 25 µg/mL |
| CN[C@@H]1[C@H](O)[C@H](NC)[C@H]2O[C@@]3(O)[C@H](NC(=O)Cc4cccnc4)C[C@@H](C)C[C@H]3O[C@@H]2[C@H]1O | broth dilution |  |  | H37Rv | MIC | 12.5 µg/mL |
| CCCCCCCCO[C@H]1O[C@H](CO[C@H]2O[C@H](CNC(=O)c3ccccc3)[C@@H](O)[C@@H]2O)[C@@H](O)[C@@H]1O |  |  |  | H37Ra | MIC | >12.8 µg/mL |
| FC(F)(F)c1cc(NCCCCNc2cc(C(F)(F)F)nc3c(C(F)(F)F)cccc23)c2cccc(C(F)(F)F)c2n1 |  |  |  | H37Rv | MIC | >6.25 µg/mL |
| O=C1N(c2nncs2)CCN1[N+](=O)[O-] |  |  |  | KM-R | MIC | 1.6 µg/mL |
| Cc1noc(-c2nc(C)c3c(c2N)C(=O)N(Cc2cccc(Cl)c2)C3=O)n1 | resazurin / visual reading |  | deltaCydKO | H37Rv-MA | MIC90 | <0.019 µM |
| O=C(Nc1cnc2ccccc2c1)c1cc(C2C3CC4CC(C3)CC2C4)c2ccccc2n1 | BACTEC | 6.25 µg/mL |  | H37Ra | inhibition | 40% |
| CO[C@H]1/C=C/O[C@@]2(C)Oc3c(C)c(O)c4c(=O)c(c5oc6cc(N7CCN(CC(C)C)CC7)cc(=O)c6nc5c4c3=C2O)NC(=O)/C(C)=C\C=C\[C@H](C)[C@H](O)[C@@H](C)[C@@H](O)[C@@H](C)[C@H](OC(C)=O)[C@@H]1C |  |  |  | H37Rv-pHT (Tyr 526 mutation) | MIC | 8 µg/mL |
| Nc1nc(N)c2nc3c(nc2n1)CN(c1ccc(C(=O)O)cc1)C3=O | BACTEC | 12.5 µg/mL |  | H37Rv | inhibition | -2% |
| CCCCCCCCCCCC(=O)N[C@@H]1C[C@@H](C)C[C@H]2O[C@@H]3[C@@H](O)[C@H](NC)[C@H](O)[C@H](NC)[C@H]3O[C@@]12O | broth dilution |  |  | H37Rv | MIC | 12.5 µg/mL |
| CN1CCN(c2ccc(NCc3ccc(-c4ccccc4)cc3)cc2)CC1 |  |  |  | 103471 | MIC | 4 µg/mL |
| CCCCCCCCO[C@H]1O[C@H](CO[C@H]2O[C@H](CNS(=O)(=O)c3ccc(C)cc3)[C@@H](O[Si](C)(C)C(C)(C)C)[C@@H]2O[Si](C)(C)C(C)(C)C)[C@@H](O[Si](C)(C)C(C)(C)C)[C@@H]1O[Si](C)(C)C(C)(C)C |  |  |  | H37Ra | MIC | >12.8 µg/mL |
| CCN(CC)CCNC(=O)Nc1c(C#N)[n+]([O-])c2cc(Cl)c(Cl)cc2[n+]1[O-] |  | 6.25 µg/mL |  | H37Rv | inhibition | 98% |
| NNC(=O)c1ccncc1 |  |  |  | MTB11 | MIC | ≤0.12 µg/mL |
| O=C(Cc1csc2nc(-c3ccc(Br)cc3)cn12)N/N=C1\SCC(=O)N1c1ccc(Br)cc1 |  | 6.25 µg/mL |  | H37Rv | inhibition | 0% |
| Cc1noc(-c2nc(C)c3c(c2N)C(=O)N(Cc2cccc(OC(F)(F)F)c2)C3=O)n1 | resazurin / visual reading |  | Ala317Thr | H37Rv-MA | MIC90 | >10 µM |
| COC(=O)c1ccc(O)c(O)c1 | resazurin | 6.25 µg/mL |  | ATCC 27294 | inhibition | 24% |
| O=C1CN=C(c2ccc[nH]2)c2cc(Cl)ccc2N1 | BACTEC |  |  | H37Rv | MIC | >128 µg/mL |
| NNC(=O)c1cnc2ccccc2c1 | BACTEC |  |  | H37Ra | MIC | >6.25 µg/mL |
| CC1(C)CC(=O)OC/C=C\CC(Cc2ccccc2)C(=O)C1 | BACTEC |  |  | H37Rv | MIC | ≥12.5 µg/mL |
| CN[C@@H]1[C@H](O[C@H]2[C@H](O[C@H]3[C@H](O)[C@@H](O)[C@H](N=C(N)N)[C@@H](O)[C@@H]3N=C(N)N)O[C@@H](C)[C@]2(O)C=O)O[C@@H](CO)[C@H](O)[C@H]1O |  |  |  | 38 strains | MIC90 | 50 µg/mL |
| COc1cc(C(=O)NCC(F)(F)F)c2ncn(Cc3ncnc(OC)c3C)c2c1 | visual reading / absorbance |  |  | H37Rv | MIC80 | <1.22 µM |
| O=C(c1ccccc1)N1C(=S)N(c2ccc([N+](=O)[O-])cc2)C(=Nc2ccccc2)C1=Nc1ccccc1 | BACTEC |  |  | H37Rv | MIC bound | >12.5 µg/mL |
| O=C(Cc1csc2nc(-c3ccc(Br)cc3)cn12)NNC(=S)Nc1ccc([N+](=O)[O-])cc1 |  | 6.25 µg/mL |  | H37Rv | inhibition | 0% |
| CC(C)=CCC/C(C)=C/CC1(C)SC(=O)C(C)=C1O |  |  |  | H37Rv | MIC90 | 200 µM |
| NC(=O)c1cc(C2C3CC4CC(C3)CC2C4)c2ccccc2n1 | BACTEC |  |  | H37Ra | MIC | 6.25 µg/mL |
| c1ccc(-c2ccc(CNc3ccccc3-n3ccnc3)cc2)cc1 |  |  |  | 103471 | MIC | 8 µg/mL |
| NS(=O)(=O)c1ccc(N=NC2Sc3nc4ccccc4n3C2=O)cc1 | BACTEC | 12.5 µg/mL |  | H37Rv | inhibition | 38% |
| FC(F)(F)c1cc(NCCN2CCOCC2)c2cccc(C(F)(F)F)c2n1 |  | 6.25 µg/mL |  | H37Rv | inhibition | 49% |
| CN.CNC(=O)c1n[nH]c(=S)[nH]c1=O | BACTEC |  |  | H37Rv | MIC bound | >12.5 µg/mL |
| C=C/C(C)=C/[C@@]1(C)SC(=O)C(C)=C1O |  |  |  | H37Rv | MIC50 | 56 µM |
| Cc1c(CN2CCN(C)CC2)c(CN2CCN(C)CC2)c(C)n1-c1ccc(Cl)cc1 | BACTEC | 6.25 µg/mL |  | H37Rv | inhibition | 36% |
| CCCCNC(=O)c1cc(C2C3CC4CC(C3)CC2C4)c2ccccc2n1 | BACTEC | 6.25 µg/mL |  | H37Ra | inhibition | 22% |
| NC(=O)C(=O)CC(=O)c1ccccc1NC1=CC(=O)C(=O)c2ccccc21 | resazurin |  |  | H37Rv | MIC bound | <6.25 µg/mL |
| CCC(/C=C/C(C)[C@H]1CCC2C3CC=C4C[C@@H](O[C@@H]5O[C@H](COC(C)=O)[C@@H](OC(C)=O)[C@H](OC(C)=O)[C@H]5OC(C)=O)CC[C@]4(C)C3CC[C@@]21C)C(C)(C)C | resazurin | 6.25 µg/mL |  | ATCC 27294 | inhibition | 30% |
| Cc1ccccc1N1CCOS(=O)OC(C)C1 | BACTEC |  |  | H37Rv | MIC bound | >12.5 µg/mL |
| NNC(=O)c1ccc2ccccc2n1 | BACTEC | 6.25 µg/mL |  | H37Ra | inhibition | 0% |
| Clc1ccc2ccc3cccnc3c2n1 | BACTEC | 12.5 µg/mL |  | H37Rv | inhibition | 33% |
| O=C(N=Nc1c(O)[nH]c2ccccc12)c1ccncc1 |  |  |  | BOVIN | MIC | 2.7 µg/mL |
| Cc1cc(C(C#N)c2ccc(Cl)cc2)c(Cl)cc1NC(=O)c1cc(I)cc(I)c1O | BACTEC |  |  | H37Rv | MIC bound | >12.5 µg/mL |
| COc1ccc(NC(=O)c2cc(C3C4CC5CC(C4)CC3C5)c3ccccc3n2)cc1Cl | BACTEC |  |  | H37Ra | MIC | >6.25 µg/mL |

Repeating the final 6 entries:

structure	read by	tested at	mutations	strain	measure	result
Cc1ccccc1N1CCOS(=O)OC(C)C1	BACTEC			H37Rv	MIC bound	>12.5 µg/mL
NNC(=O)c1ccc2ccccc2n1	BACTEC	6.25 µg/mL		H37Ra	inhibition	0%
Clc1ccc2ccc3cccnc3c2n1	BACTEC	12.5 µg/mL		H37Rv	inhibition	33%
O=C(N=Nc1c(O)[nH]c2ccccc12)c1ccncc1				BOVIN	MIC	2.7 µg/mL
Cc1cc(C(C#N)c2ccc(Cl)cc2)c(Cl)cc1NC(=O)c1cc(I)cc(I)c1O	BACTEC			H37Rv	MIC bound	>12.5 µg/mL
COc1ccc(NC(=O)c2cc(C3C4CC5CC(C4)CC3C5)c3ccccc3n2)cc1Cl	BACTEC			H37Ra	MIC	>6.25 µg/mL